Measured data: PubChem BioAssay AID1259414 (Drosophila RNAi Screening Center, 2018)
Screen: 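Fly genes that alter Wolbachia amount inside host cells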 (primary screen). System: Drosophila JW18 cells infected with Wolbachia. Reagent: long dsRNA against Drosophila genes, 0.25 µg dsRNA per well of a 384-well plate. Time to read-out: 5 days. Treatment: cells persistently infected with Wolbachia before knock-down; no added drug. Measured: 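Automated imaging of bacterial rRNA staining divided by host cell count, reported as plate-normalised robust z-score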. Direction: Wolbachia per cell robust z: higher = more Wolbachia per host cell than the plate typical. Active means: 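Hit when robust z is 1.5 or more, or -1.5 or less, in at least two of three replicates; excludes dsRNAs with several or no targets, genes not expressed in JW18 and well A1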.
The deposit covers about 24,000 reagents; below is an unselected part of those that have a named target and a result. Over the whole deposit, about 1,210 (5%) were called active. 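Inactive calls also include excluded dsRNAs with several or no targets, genes unexpressed in JW18, and well A1, regardless of score.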 A number with no mark means an inactive call. Names joined by + are all predicted targets of the reagent.

gene knocked down | dsRNA | Wolbachia per cell robust z, rep 1 | Wolbachia per cell robust z, rep 2 | Wolbachia per cell robust z, rep 3
CG6125 | DRSC15970 | 0.0374 | -0.0145 | -1.3
Ssk | DRSC10756 | 0.961 | 0.296 | 0.321
obst-I | DRSC08339 | 1.1 | 0.12 | 0.798
pod1 | DRSC18362 | 0.436 | -1.11 | 0.299
pod1 | DRSC23544 | 0.452 | -1.49 | -0.252
Dyb | DRSC07208 | -1.37 | 0.157 | 0.278
Dyb | DRSC22862 | -1.12 | -0.429 | -0.445
Dyb | DRSC29699 | -1.71 (active) | 0.874 | -8.52
lky | DRSC20682 | 0.804 | 0.478 | 0.852
lky | DRSC27161 | 1.34 | -0.016 | 1.32
SmydA-2 | DRSC10296 | -0.59 | -1.5 | 0.0411
Targ2 | DRSC21970 | -0.287 | -0.28 | 0.395
NdufV3 | DRSC19423 | 0.834 | -0.212 | 0.502
NdufV3 | DRSC27236 | -1.31 | -1.41 | -0.0938
Hayan | DRSC19989 | -4.44 | -6.4 | 0.884
Hayan | DRSC22231 | 0.217 | 1.09 | 1.1
Hayan | DRSC26434 | 1.21 | 0.965 | 0.631
CG5104 | DRSC11765 | -0.0444 | 0.44 | -0.477
Est-Q | DRSC11835 | 1 | 1.03 | -0.196
CG6763 | DRSC16110 | -4.38 | 0.104 | 0.585
CG6763 | DRSC24299 | 1.79 | 0.658 | -0.351
Spn43Ad | DRSC06770 | -2.89 | -0.121 | -0.379
Ptp36E | DRSC03021 | -0.519 | -0.0542 | 1.57
CheB42b | DRSC22878 | -0.429 | -0.184 | -2.4
Gpa2 | DRSC38765 | -2.4 | -2.87 | -4.34
RpL30 | DRSC02087 | 3.93 (active) | 2.9 | 4.64
CG34164 | DRSC02837 | -1.09 | 0.727 | -0.913
CR10102 | DRSC05963 | -0.276 | 0.411 | -1.91
Had1 | DRSC20216 | 0.198 | -0.465 | -0.0476
slow | DRSC08589 | 0.0198 | -1.15 | -0.441
slow | DRSC08590 | -1.75 | -0.131 | -0.447
slow | DRSC26083 | 0.559 | -0.698 | 0.506
Dredd | DRSC18461 | 0.488 | 0.137 | -0.524
Dredd | DRSC40866 | -3.27 | 1 | 0.435
Maf1 | DRSC37750 | 0.966 | 1.15 | 0.675
Maf1 | DRSC38594 | 1.1 | 2.69 | 0.664
CG5478 | DRSC15814 | -1.74 | 0.186 | 0.99
Tom20 | DRSC10899 | -1.76 | 0.562 | 1.07
CG15767 | DRSC18073 | 0.0825 | 0.355 | 0.713
CG15767 | DRSC29131 | 0.523 | -0.0927 | -0.978
CG15445 | DRSC20517 | 1.55 | 1.22 | -0.659
CG33322 | DRSC03204 | -0.424 | -0.344 | -0.332
Kaz1-ORFB | DRSC08669 | -1.3 | -0.0268 | 0.0423
CG4582 | DRSC15605 | -1.35 | -0.00106 | 0.0171
Trim9 | DRSC02242 | -1.51 | 0.0502 | -0.684
Trim9 | DRSC28679 | -7.34 | -0.787 | -1.75
Aduk | DRSC16451 | -0.731 | 1.4 | 1.05
Aduk | DRSC29838 | -6.18 | -0.531 | 0.537
CR42546 | DRSC03711 | 1.09 | 0.775 | -2.07
lectin-29Ca | DRSC02635 | 0.48 | 0.209 | 0.937
CG14262 | DRSC14757 | -4.11 | 1.07 | 0.774
Sf3b3 | DRSC08370 | 1.32 | 2.07 | -4.87
CG12020 | DRSC08226 | 0.268 | -0.687 | -4.5
CG12020 | DRSC28730 | 0.917 | 1.25 | -0.496
Npc2e | DRSC15522 | -0.19 | 0.638 | 0.63
Npc2e | DRSC22338 | 0.56 | -0.188 | 0.444
CG2772 | DRSC00530 | 0.0166 | -0.388 | -0.329
CG2772 | DRSC27114 | -0.437 | -6.77 | -1.1
CG12009 | DRSC08217 | 0.249 | 1.09 | -0.54
CG12009 | DRSC26937 | -0.0879 | -0.562 | 0.875
C901 | DRSC19351 | 0.599 | -0.106 | 0.951
C901 | DRSC28397 | 1.07 | -0.0894 | 1.29
CG18170 + CG33791 | DRSC08523 | 0.533 | -1.33 | -0.317
CG18170 + CG33791 | DRSC24614 | -2.09 | 2.04 | 0.606
CG18170 + CG33791 | DRSC39043 | 0.704 | 0.0678 | 0.372
CG18170 + CG33791 | DRSC41266 | 0.138 | 0.134 | -2.58
hig | DRSC07628 | -0.518 | 0.197 | 0.427
hig | DRSC22827 | -0.196 | -0.721 | -0.0363
hig | DRSC22899 | 0.396 | -1.59 | -0.0171
hig | DRSC26925 | -0.419 | 0.471 | -0.768
CG10863 | DRSC08145 | -0.0537 | -0.231 | -0.0666
bond | DRSC16135 | -1.79 | -0.106 | -0.0405
bond | DRSC23724 | 2.48 | -0.84 | 1.33
alpha-Est10 | DRSC12613 | 0.334 | 0.749 | 0.922
alpha-Est10 | DRSC25456 | -0.624 | -0.283 | 0.0577
Rab9D + Rab9E + Rab9Db | DRSC17656 | -3.2 | 0.386 | 1.61
nmo | DRSC08902 | 1.02 | 2.23 | 0.489
nmo | DRSC11377 | -8.68 (active) | -0.512 | -2.19
nmo | DRSC27949 | 0.211 | -2.12 | -1.48
beat-Vc | DRSC12927 | -2.67 | -0.55 | 0.109
beat-Vc | DRSC14849 | 1.19 | 0.978 | -0.0904
t | DRSC17815 | 0.118 | 0.0924 | -2.04
t | DRSC29460 | -0.533 | -0.298 | 0.287
Scsalpha1 | DRSC08698 | 0.873 | 0.616 | 0.961
Scsalpha1 | DRSC26856 | -5.28 (active) | 1.17 | -8.35
CG17917 | DRSC12570 | -1.26 | 0.021 | 0.729
CG3592 | DRSC18315 | -1.11 | -0.423 | -1.59
CG3592 | DRSC40712 | -0.649 | -1.09 | -0.116

Hits (from the list above):
gene knocked down | dsRNA | Wolbachia per cell robust z, rep 1 | Wolbachia per cell robust z, rep 2 | Wolbachia per cell robust z, rep 3
Dyb | DRSC29699 | -1.71 (active) | 0.874 | -8.52
RpL30 | DRSC02087 | 3.93 (active) | 2.9 | 4.64
nmo | DRSC11377 | -8.68 (active) | -0.512 | -2.19
Scsalpha1 | DRSC26856 | -5.28 (active) | 1.17 | -8.35
